The values below come from patent publication US8012491B2, “Recombinant toxin fragments” (dated 2011).

For the experiment, the target named is native botulinum neurotoxin type A (Clostridium botulinum).

Regarding “non-immune guinea pig antiserum (polyclonal serum or antibody)”, the neutralisation assay: survivors on day 2 at 5 pg botulinum toxin/mouse came out at 0 survivors.
